Assays:
[1] = target: recombinant SARS-CoV-2 main protease (Mpro) (Severe acute respiratory syndrome coronavirus 2, UniProt P0DTD1); assay: IC50 FRET assay, inhibition of recombinant SARS-CoV-2 main protease; details: Mpro 50 nM, substrate 10 μM
[2] = test system: SARS-CoV-2 (SARS-CoV2/ZG/297-20) in Vero E6 cells; assay: Antiviral assay in Vero E6 cells infected with SARS-CoV-2 (cell viability, Cell Titer Glo); details: Vero E6, MOI 0.05
Protocol: Vero E6 cells (2×10^4/well) were seeded in 96 well plates one day before the experiment. Pre-treatment, the medium was removed and compounds were added at concentrations varying from 0.1-100 μM. After 24 h incubation, the medium was removed and cells were infected with MOI 0.05 SARS-CoV-2 SARS-CoV2/ZG/297-20. After 1 h infection, the viruses were removed and the same concentration of compounds were added back into the cells. After 72 h incubation at 37° C., EC50 measurements were made using ATP quantification (Cell Titer Glo).

With `O=C1CCC(N2C(=O)c3cccc(OCCCCCCNC(=O)c4ccc5c(N6C(=O)NC7(CC(c8ccccc8Cl)C7)C6=O)cncc5c4)c3C2=O)C(=O)N1` (stereo not drawn) the IC50 [1] was less than 1000 nM, the “Antiviral Activity 10 uM” value ([2]; 10 uM compound) was “E (<0%=E)” and the “Antiviral Activity 50 uM” value ([2]; 50 uM compound) was “E (<0%=E)”.

Source: patent US20260137677A1, “PROTACS USEFUL AGAINST THE MAIN PROTEASE SARS-COV-2” (Tocris Cookson Limited, priority 2022, published 2026)
